A mixed list of measured activities; the numbers were collected in NIAID ChemDB.

All rows: enzyme or target tests; agent: HIV-1; protein: Tat:TAR/LTR

Lines come from different laboratories, so protocols vary.

SMILES,read by,endpoint,value
CC(=O)c1ccc2c(c1)N(CCCN(C)C)c1ccccc1S2,FRET,IC50,500 µM
Cn1cc(C(=O)O)c(=O)c2cc(N)c(N3CCN(c4ccccn4)CC3)cc21,gel,Ki,3.5 µM
C[C@@H](CN[C@H](CN[C@H](CN[C@H](CNCCC(N)=O)Cc1ccc(O)cc1)Cc1ccc(O)cc1)Cc1ccc(O)cc1)NC[C@H](Cc1ccc(O)cc1)NC[C@H](Cc1ccc(O)cc1)NC[C@H](Cc1ccc(O)cc1)NC[C@@H](N)Cc1ccc(O)cc1,luciferase,IC50,0.2 µM
CN1CCN(c2ccc3nc(-c4ccc5nc(-c6ccc(OCc7cn(C[C@H]8O[C@@H](O[C@@H]9[C@@H](O)[C@H](N)C[C@H](N)[C@H]9O[C@H]9O[C@H](CN)[C@@H](O)[C@H](O)[C@H]9N)[C@H](O)[C@@H]8O[C@H]8O[C@@H](CN)[C@@H](O)[C@H](O)[C@H]8N)nn7)cc6)[nH]c5c4)[nH]c3c2)CC1,FRET / binding,IC50,0.251 µM
Cc1cccc(OCCC[NH3+])c1[N+](=O)[O-],ELISA,IC50,164.8 µM
NCCCC[C@@H](CN[C@H](CN[C@H](CN[C@H](CNCCC(N)=O)Cc1ccc(O)cc1)Cc1ccc(O)cc1)Cc1ccc(O)cc1)NC[C@H](Cc1ccc(O)cc1)NC[C@@H](N)Cc1ccc(O)cc1,luciferase,IC50,0.5 µM
NCCCC[C@H](COC(=O)O)NC(=O)CN(CCCCN)C(=O)OC[C@@H](N)CCCN=C(N)N,nucleotide incorporation / radiometric,Ki,1 µM
NCCNc1c2ccccc2nc2ccccc12,gel,IC50,800 µM
NCC1O[C@H](O[C@H]2C(N)C[C@@H](N)C(O)[C@H]2O[C@@H]2O[C@H](Cn3cc(CNC(=O)[C@@H](N)c4cnc[nH]4)nn3)[C@H](O[C@H]3O[C@@H](CN)[C@@H](O)C(O)C3N)C2O)C(N)[C@@H](O)[C@@H]1O,RNase H / fluorescence,IC50,0.461 µM
NCCCOc1ccc(-c2ccc3[nH]ccc3c2)cc1CNCCN1CCNCC1,FRET,Ki,0.039 µM
NCCCC[C@@H]1NC(=O)[C@H](CCCN=C(N)N)NC(=O)[C@@H](Cc2ccccc2)NC(=O)[C@H](CCCN=C(N)N)NC(=O)[C@H](CCCN=C(N)N)NC1=O,FRET,Ki,12.73 µM
COc1ccc2nc3cc(Cl)ccc3c(NCc3ccc(CN(CCCN)CCCCN)cc3)c2c1,gel,IC50,>1 µM
NCCCOc1ccc(-c2cccs2)cc1CNCCCCN=C(N)N,FRET,Ki,0.86 µM
CCSc1ccc2c(c1)N(CCCN1CCN(C)CC1)c1ccccc1S2,gel,IC50,>10 µM
NCCN(CCN)CCNc1c2ccccc2nc2ccccc12,gel,IC50,0.17 µM
CNC(=O)[C@@H](Cc1ccccc1)NP(=O)(O)OC[C@H]1O[C@@H](n2cc(C)c(=O)[nH]c2=O)C[C@@H]1N=[N+]=[N-],fluorescence,IC50,0.0028 µM
CC(=O)NCCN(CCC(=O)NCCN(CCC(=O)NCCN(CCC(=O)NCCN(CCC(=O)NCCN(CCC(=O)NCCC(N)=O)C(=O)[C@@H](N)Cc1ccccc1)C(=O)[C@@H](N)CCCN=C(N)N)C(=O)[C@@H](N)Cc1ccccc1)C(=O)[C@@H](N)CCCCN)C(=O)[C@@H](N)CCCCN,FRET / fluorescence,IC50,0.593 µM
NCCCCN(CCCN)CCCN1C(=O)c2cccc3cc([N+](=O)[O-])cc(c23)C1=O,gel,IC50,0.03 µM
CCN(CC)CCn1c2ccccc2c2nc3ccc([N+](=O)[O-])cc3cc21,FRET,IC50,500 µM
NCCCOc1ccc(-c2ccc3ccccc3c2)cc1CNCCCCN=C(N)N,FRET,Ki,0.43 µM
NC(=O)c1ccn2c1CS[C@@H]2c1cccnc1,,Ki,>100 µM
NCCCC[C@@H](CN[C@H](CNCCC(N)=O)Cc1ccc(O)cc1)NC[C@H](Cc1ccc(O)cc1)NC[C@H](CCCCN)NC[C@H](Cc1ccc(O)cc1)NC[C@@H](N)Cc1ccc(O)cc1,luciferase,IC50,0.4 µM
COc1ccc2nc3cc(Cl)ccc3c(NCCCCN(CCCN)CCCN)c2c1,gel,IC50,0.083 µM
NCCCC[C@@H]1NC(=O)[C@H](CCCN=C(N)N)NC(=O)[C@H](Cc2ccccc2)NC(=O)[C@@H](CCCN=C(N)N)NC(=O)[C@H](CCCN=C(N)N)NC1=O,FRET,Ki,15.24 µM
NCCN(CCN)CCNC(=O)c1c2ccccc2nc2ccccc12,gel,IC50,>1 µM
NC(=O)CCNC[C@H](Cc1ccc(O)cc1)NC[C@H](Cc1ccc(O)cc1)NC[C@H](Cc1ccc(O)cc1)NC[C@H](Cc1ccc(O)cc1)NC[C@H](Cc1ccc(O)cc1)NC[C@H](Cc1ccc(O)cc1)NC[C@H](Cc1ccc(O)cc1)NC[C@@H](N)Cc1ccc(O)cc1,luciferase,IC50,0.2 µM
NCC(=O)N1CCC[C@H]1C(=O)NCC(N)=O,,IC50,>100 µM
CC(=O)NCCN(CCC(=O)NCCN(CCC(=O)NCCN(CCC(=O)NCCN(CCC(=O)NCCN(CCC(=O)NCCC(N)=O)C(=O)[C@@H](N)Cc1ccccc1)C(=O)[C@@H](N)CCCN=C(N)N)C(=O)[C@@H](N)Cc1ccccc1)C(=O)[C@@H](N)Cc1ccccc1)C(=O)[C@@H](N)CCCN=C(N)N,FRET / fluorescence,IC50,>2 µM
COC1CC[C@@H](OCCCN=C(N)N)[C@@H](COCCCN=C(N)N)O1,FRET,Ki,2.75 µM
CC(=O)NCCN(CCC(=O)NCCN(CCC(=O)NCCN(CCC(=O)NCCN(CCC(=O)NCCN(CCC(=O)NCCC(N)=O)C(=O)[C@@H](N)Cc1ccccc1)C(=O)[C@@H](N)CCCN=C(N)N)C(=O)[C@@H](N)Cc1ccccc1)C(=O)[C@@H](N)CCCN=C(N)N)C(=O)[C@@H](N)CCCN=C(N)N,FRET / fluorescence,IC50,0.101 µM
NCCCOc1ccc(-c2ccccc2)cc1CNCC1CCNCC1,FRET,Ki,1.19 µM

Repeating the final 3 entries:

SMILES | read by | endpoint | value
COC1CC[C@@H](OCCCN=C(N)N)[C@@H](COCCCN=C(N)N)O1 | FRET | Ki | 2.75 µM
CC(=O)NCCN(CCC(=O)NCCN(CCC(=O)NCCN(CCC(=O)NCCN(CCC(=O)NCCN(CCC(=O)NCCC(N)=O)C(=O)[C@@H](N)Cc1ccccc1)C(=O)[C@@H](N)CCCN=C(N)N)C(=O)[C@@H](N)Cc1ccccc1)C(=O)[C@@H](N)CCCN=C(N)N)C(=O)[C@@H](N)CCCN=C(N)N | FRET / fluorescence | IC50 | 0.101 µM
NCCCOc1ccc(-c2ccccc2)cc1CNCC1CCNCC1 | FRET | Ki | 1.19 µM

An empty or dashed field is not shown. ICn is the concentration giving n% inhibition.